The structures appear in SMILES notation.

For this test, the target named is NA of A/California/7/2009(H1N1) (Influenza A virus (A/California/07/2009(H1N1)), UniProt C3W6G3). The test is classed as biochemical, influenza A(H1N1)pdm09 virus. The following applies: Cal/7/09; mean±SD of 3 independent determinations.

As to `CCC(CC)O[C@@H]1C=C(C(=O)O)C[C@H](N)[C@H]1NC(C)=O` [OC, oseltamivir carboxylate], the affinity, expressed as Ki, was 0.26 nM.
